Results of unrelated studies side by side (data: NIAID ChemDB).

Common to all: cytotoxicity tests; cell line: MT-4; measure: CC50

Lines come from different laboratories, so protocols vary. CCn is the concentration with n% toxicity to the cells.

{"smiles": "CC1=NO[C@@]2(CC[C@H](C)N3C[C@H]2n2cc(C(=O)NCc4ccc(F)cc4F)c(=O)c(OCOC(=O)CCC(C)C)c2C3=O)C1", "read by": "luminescence", "result": "12.2 µM"}
{"smiles": "C/C(=N\\Nc1nc(-c2ccc(Cl)cc2)cs1)c1ccc2c(c1)OCO2", "read by": "MTT", "result": "21.83 µM"}
{"smiles": "O=C(OC1OC2COC(=O)c3cc(Oc4c(C(=O)OC5OC6COC(=O)c7cc(O)c(O)c(O)c7-c7c(cc(O)c(O)c7O)C(=O)OC6C(OC(=O)c6cc(O)c(O)c(O)c6)C5OC(=O)c5cc(O)c(O)c(O)c5)cc(O)c(O)c4O)c(O)c(O)c3-c3c(cc(O)c(O)c3O)C(=O)OC2C(OC(=O)c2cc(O)c(O)c(O)c2)C1OC(=O)c1cc(O)c(O)c(O)c1)c1cc(O)c(O)c(O)c1", "result": "24.7 µg/mL"}
{"smiles": "CCOC(=O)c1[nH]c2ccc(Cl)cc2c1S(=O)(=O)CC1CCC1", "read by": "microscopy", "result": ">10 µM"}
{"smiles": "COC[C@@H](C)OC(=O)OCOc1c2n(cc(C(=O)NCc3ccc(F)cc3F)c1=O)[C@@H]1CN(C2=O)[C@@H](C)CC[C@]12CC(C)=NO2", "read by": "luminescence", "result": "50 µM"}
{"smiles": "Brc1ccc(-c2csc(N/N=C/c3cccnc3)n2)cc1", "read by": "MTT", "result": "23.39 µM"}
{"smiles": "NC(=O)c1[nH]c2ccc(Cl)cc2c1S(=O)(=O)CCCC(F)(F)F", "read by": "microscopy", "result": ">10 µM"}
{"smiles": "C[C@H](CS)C(=O)N1CCC[C@@H]1c1nc2ccccc2s1", "read by": "MTT", "result": "15.8 µg/mL"}
{"smiles": "O=C(/C=C/c1ccccc1)c1ccccc1O", "read by": "MTT", "result": "324 µM"}
{"smiles": "COC(=O)c1ccc(NC(=O)CSc2nc3cnccc3n2-c2c(C)cc(C)cc2C)c(Br)c1", "read by": "MTT", "result": "27 µM"}
{"smiles": "CCOC(=O)c1[nH]c2ccc(Cl)cc2c1SC1CC1", "read by": "microscopy", "result": ">10 µM"}
{"smiles": "CCCCCCCCCCCCCCCCOC(=O)OCOc1c2n(cc(C(=O)NCc3ccc(F)cc3F)c1=O)[C@@H]1CN(C2=O)[C@@H](C)CC[C@]12CC(OC)=NO2", "read by": "luminescence", "result": "50 µM"}
{"smiles": "C/C(=N\\Nc1nc(-c2ccc([N+](=O)[O-])cc2)cs1)c1ccc2c(c1)OCO2", "read by": "MTT", "result": "97.2 µM"}
{"smiles": "CCOC(=O)c1ccc(NC(=O)CSc2nc3cnccc3n2-c2c(C)cc(C)cc2C)c(Br)c1", "read by": "MTT", "result": "22 µM"}
{"smiles": "O=CC1OC(=O)c2cc(O)c(O)c(O)c2Oc2cc3c(c(O)c2O)-c2c(cc(Oc4c(C(=O)O)cc(O)c(O)c4O)c(O)c2O)C(=O)OCC(O)C(OC3=O)C(OC(=O)c2cc(O)c(O)c(O)c2)C(C=O)OC(=O)c2cc(O)c(O)c(O)c2Oc2cc3c(c(O)c2O)-c2c(cc(O)c(O)c2O)C(=O)OC(C(O)COC3=O)C1OC(=O)c1cc(O)c(O)c(O)c1", "result": "96.7 µg/mL"}
{"smiles": "CC1=NO[C@@]2(CC[C@H](C)N3C[C@H]2n2cc(C(=O)NCc4ccc(F)cc4F)c(=O)c(O[C@@H](C)OC(=O)OC(C)C)c2C3=O)C1", "read by": "luminescence", "result": "50 µM"}
{"smiles": "N#Cc1ccc(-c2csc(N/N=C/c3ccco3)n2)cc1", "read by": "MTT", "result": "10.04 µM"}
{"smiles": "CCOC(=O)c1[nH]c2ccc(Cl)cc2c1S(=O)(=O)CCC(F)(F)F", "read by": "microscopy", "result": ">10 µM"}
{"smiles": "C/C(=N\\Nc1nc(-c2ccc(Br)cc2)cs1)c1ccc2c(c1)OCO2", "read by": "MTT", "result": "41.93 µM"}
{"smiles": "COc1ccc(/C=C/C(=O)c2ccc(OC)cc2OC)cc1", "read by": "MTT", "result": ">400 µM"}
{"smiles": "O=C(OC1C(OC(=O)c2cc(O)c(O)c(O)c2Oc2cc3c(c(O)c2O)-c2c(cc(O)c(O)c2O)C(=O)OCC2OC(OC(=O)c4cc(O)c(O)c(O)c4O)C(OC(=O)c4cc(O)c(O)c(O)c4)C(OC(=O)c4cc(O)c(O)c(O)c4)C2OC3=O)OC2COC(=O)c3ccc(O)c(O)c3-c3c(cc(O)c(O)c3O)C(=O)OC2C1OC(=O)c1cc(O)c(O)c(O)c1)c1cc(O)c(O)c(O)c1", "result": "70.3 µg/mL"}
{"smiles": "Cc1cc(C)c(-n2c(SCC(=O)Nc3ccccc3)nc3cccnc32)c(C)c1", "read by": "MTT", "result": "26 µM"}
{"smiles": "C[C@H](CS)C(=O)N1CCC[C@@H]1c1nc2ncccc2[nH]1", "read by": "MTT", "result": "5.12 µg/mL"}
{"smiles": "O=C(O)C[C@H]1C(=O)O[C@H]2[C@H](OC(=O)c3cc(O)c(O)c(O)c3)[C@@H](OC(=O)c3cc(O)c(O)c4c3[C@H]1[C@H](O)C(=O)O4)[C@H](OC(=O)c1cc(O)c(O)c(O)c1)O[C@@H]2COC(=O)c1cc(O)c(O)c(O)c1", "result": "19.5 µg/mL"}
{"smiles": "O=[N+]([O-])c1ccc(-c2csc(N/N=C/c3cccnc3)n2)cc1", "read by": "MTT", "result": "62.4 µM"}
{"smiles": "CC1=NO[C@@]2(CC[C@H](C)N3C[C@H]2n2cc(C(=O)NCc4ccc(F)cc4F)c(=O)c(OCOC(=O)CCCCCC(C)C)c2C3=O)C1", "read by": "luminescence", "result": "50 µM"}
{"smiles": "C[C@H](CS)C(=O)N1CCC[C@@H]1c1nc2c([N+](=O)[O-])cccc2[nH]1", "read by": "MTT", "result": "11.27 µg/mL"}
{"smiles": "O=C1OC[C@H]2OC(OC(=O)c3cc(O)c(O)c(O)c3)C(OC(=O)c3cc(O)c(O)c(O)c3)C(OC(=O)c3cc(O)c(O)c(O)c3)[C@@H]2OC(=O)c2cc(O)c(O)c3c2C2C1=CC(=O)[C@@](O)(O3)C2(O)O", "result": "33 µg/mL"}
{"smiles": "CCCCCOC(=O)OCOc1c2n(cc(C(=O)NCc3ccc(F)cc3F)c1=O)[C@@H]1CN(C2=O)[C@@H](C)CC[C@]12CC(C)=NO2", "read by": "luminescence", "result": "50 µM"}
{"smiles": "Cc1cc(C)c(-n2c(SCC(=O)Nc3ccc(C)cc3[N+](=O)[O-])nc3cnccc32)c(C)c1", "read by": "MTT", "result": "6.2 µM"}
{"smiles": "COc1ccc(/C=C/C(=O)c2ccccc2O)cc1OC", "read by": "MTT", "result": "388 µM"}
{"smiles": "COc1ccc(/C=N/Nc2nc(-c3ccc(Cl)cc3)cs2)cc1", "read by": "MTT", "result": "125 µM"}
{"smiles": "COc1ccc(C(=O)/C=C/c2ccc(OC)c(OC)c2)c(O)c1", "read by": "MTT", "result": "370 µM"}
{"smiles": "C[C@H](CSCCN1C(=O)c2ccccc2C1=O)C(=O)N1CCC[C@@H]1C(=O)O", "read by": "MTT", "result": "22.43 µg/mL"}
{"smiles": "O=C(OC[C@H]1O[C@@H](O)[C@@H]2OC(=O)c3cc(O)c(O)c(O)c3-c3c(cc(O)c(O)c3O)C(=O)O[C@H]2[C@@H]1OC(=O)c1cc(O)c(O)c(O)c1Oc1cc2c(c(O)c1O)-c1c(cc(O)c(O)c1O)C(=O)O[C@@H]1[C@@H](OC2=O)[C@H](OC(=O)c2cc(O)c(O)c(O)c2)O[C@@H]2COC(=O)c3cc(O)c(O)c(O)c3-c3c(cc(O)c(O)c3O)C(=O)O[C@@H]12)c1cc(O)c(OC(=O)c2cc(O)c(O)c(O)c2)c(O)c1", "result": "33.7 µg/mL"}
{"smiles": "C/C(=N\\Nc1nc(-c2ccc(Cl)cc2)cs1)c1ccc(-c2ccc(Br)cc2)cc1", "read by": "MTT", "result": "10.23 µM"}